{"sequences": {"note": "Protein sequences, listed by entry. Tags and fused reporters are not part of them.", "UniProt P41143, whole entry, looked up": "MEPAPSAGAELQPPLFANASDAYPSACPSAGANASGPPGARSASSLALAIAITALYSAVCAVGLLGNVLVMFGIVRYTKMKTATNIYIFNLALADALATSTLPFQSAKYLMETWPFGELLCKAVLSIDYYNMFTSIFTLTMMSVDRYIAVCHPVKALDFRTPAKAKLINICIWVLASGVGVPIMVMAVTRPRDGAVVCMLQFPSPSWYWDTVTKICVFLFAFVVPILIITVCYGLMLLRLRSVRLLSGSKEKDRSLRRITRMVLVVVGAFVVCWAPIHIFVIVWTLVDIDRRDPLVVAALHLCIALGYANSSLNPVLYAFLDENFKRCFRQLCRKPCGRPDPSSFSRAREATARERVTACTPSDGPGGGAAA"}, "source": "ChEMBL document CHEMBL1156083", "about": "“N,N-Diethyl-4-[(3-hydroxyphenyl)(piperidin-4-yl)amino] benzamide derivatives: the development of diaryl amino piperidines as potent delta opioid receptor agonists with in vivo anti-nociceptive activity in rodent models” (Bioorg Med Chem Lett, 2009)", "key": {"[1]": {"species_on_record": "Homo sapiens", "test": "Selectivity ratio of Ki for human cloned kappa opioid receptor to Ki for human cloned delta opioid receptor"}, "[2]": {"biological_target": "Delta-type opioid receptor (Homo sapiens) (UniProt P41143)", "test": "Agonist activity at human delta opioid receptor by [35S]GTPgammaS binding assay relative to SNC80"}, "[3]": {"species_on_record": "Homo sapiens", "test": "Selectivity ratio of Ki for human cloned mu opioid receptor to Ki for human cloned delta opioid receptor"}}, "data": [{"smiles": "CCN(CC)C(=O)c1ccc(N(c2cccc(O)c2)C2CCN(CCC3CC3)CC2)cc1", "values": [{"measurement": "Ratio Ki", "setting": "[1]", "result": 522}, {"measurement": "Emax", "setting": "[2]", "result": 80, "unit": "%"}, {"measurement": "Ratio Ki", "setting": "[3]", "result": 129}]}, {"smiles": "C=CCCN1CCC(N(c2ccc(C(=O)N(CC)CC)cc2)c2cccc(O)c2)CC1", "values": [{"measurement": "Ratio Ki", "setting": "[1]", "result": 96}, {"measurement": "Emax", "setting": "[2]", "result": 77, "unit": "%"}, {"measurement": "Ratio Ki", "setting": "[3]", "result": 127}]}, {"smiles": "CCN(CC)C(=O)c1ccc(N(c2cccc(O)c2)C2CCN(CCc3nccn3C)CC2)cc1", "values": [{"measurement": "Ratio Ki", "setting": "[1]", "result": 2690}, {"measurement": "Emax", "setting": "[2]", "result": 92, "unit": "%"}, {"measurement": "Ratio Ki", "setting": "[3]", "result": 452}]}, {"smiles": "CCN(CC)C(=O)c1ccc(N(c2cccc(O)c2)C2CCN(CCc3ccoc3)CC2)cc1", "values": [{"measurement": "Ratio Ki", "setting": "[1]", "result": 550}, {"measurement": "Emax", "setting": "[2]", "result": 105, "unit": "%"}, {"measurement": "Ratio Ki", "setting": "[3]", "result": 802}]}, {"smiles": "CCN(CC)C(=O)c1ccc(N(c2cccc(O)c2)C2CCN(CCc3ccco3)CC2)cc1", "values": [{"measurement": "Ratio Ki", "setting": "[1]", "result": 632}, {"measurement": "Emax", "setting": "[2]", "result": 101, "unit": "%"}, {"measurement": "Ratio Ki", "setting": "[3]", "result": 276}]}, {"smiles": "CCN(CC)C(=O)c1ccc(N(c2cccc(O)c2)C2CCN(CCc3ccccc3F)CC2)cc1", "values": [{"measurement": "Ratio Ki", "setting": "[1]", "result": 1270}, {"measurement": "Emax", "setting": "[2]", "result": 111, "unit": "%"}, {"measurement": "Ratio Ki", "setting": "[3]", "result": 342}]}, {"smiles": "CCN(CC)C(=O)c1ccc(N(c2cccc(O)c2)C2CCN(CCc3ccsc3)CC2)cc1", "values": [{"measurement": "Ratio Ki", "setting": "[1]", "result": 1820}, {"measurement": "Emax", "setting": "[2]", "result": 97, "unit": "%"}, {"measurement": "Ratio Ki", "setting": "[3]", "result": 470}]}, {"smiles": "CCN(CC)C(=O)c1ccc(N(c2cccc(OC)c2)C2CCN(CCc3ncc[nH]3)CC2)cc1", "values": [{"measurement": "Emax", "setting": "[2]", "result": 193, "unit": "%"}]}, {"smiles": "CCN(CC)C(=O)c1ccc(N(c2cccc(O)c2)C2CCN(CCc3ccncc3)CC2)cc1", "values": [{"measurement": "Ratio Ki", "setting": "[1]", "result": 4460}, {"measurement": "Emax", "setting": "[2]", "result": 111, "unit": "%"}, {"measurement": "Ratio Ki", "setting": "[3]", "result": 1510}]}, {"smiles": "CCN(CC)C(=O)c1ccc(N(c2cccc(O)c2)C2CCN(CC(C)c3ccccc3)CC2)cc1", "note": "(centres undefined)", "values": [{"measurement": "Ratio Ki", "setting": "[1]", "result": 1560}, {"measurement": "Emax", "setting": "[2]", "result": 101, "unit": "%"}, {"measurement": "Ratio Ki", "setting": "[3]", "result": 463}]}, {"smiles": "CCN(CC)C(=O)c1ccc(N(c2cccc(O)c2)C2CCN(CCc3ncc[nH]3)CC2)cc1", "values": [{"measurement": "Ratio Ki", "setting": "[1]", "result": 3960}, {"measurement": "Emax", "setting": "[2]", "result": 118, "unit": "%"}, {"measurement": "Ratio Ki", "setting": "[3]", "result": 4170}]}, {"smiles": "CCN(CC)C(=O)c1ccc(N(c2cccc(O)c2)C2CCN(CCc3ccccn3)CC2)cc1", "values": [{"measurement": "Ratio Ki", "setting": "[1]", "result": 8520}, {"measurement": "Emax", "setting": "[2]", "result": 98, "unit": "%"}, {"measurement": "Ratio Ki", "setting": "[3]", "result": 854}]}, {"smiles": "CCN(CC)C(=O)c1ccc(N(c2cccc(OC)c2)C2CCN(CCc3ccccc3)CC2)cc1", "values": [{"measurement": "Emax", "setting": "[2]", "result": 101, "unit": "%"}]}, {"smiles": "CCN(CC)C(=O)c1ccc(N(c2cccc(O)c2)C2CCN(CCc3cccc(F)c3)CC2)cc1", "values": [{"measurement": "Ratio Ki", "setting": "[1]", "result": 1930}, {"measurement": "Emax", "setting": "[2]", "result": 92, "unit": "%"}, {"measurement": "Ratio Ki", "setting": "[3]", "result": 670}]}, {"smiles": "CCN(CC)C(=O)c1ccc(N(c2cccc(OC)c2)C2CCN(CCc3cccs3)CC2)cc1", "values": [{"measurement": "Emax", "setting": "[2]", "result": 173, "unit": "%"}]}, {"smiles": "CCN(CC)C(=O)c1ccc(N(c2cccc(O)c2)C2CCN(CCc3c[nH]cn3)CC2)cc1", "values": [{"measurement": "Ratio Ki", "setting": "[1]", "result": 901}, {"measurement": "Emax", "setting": "[2]", "result": 105, "unit": "%"}, {"measurement": "Ratio Ki", "setting": "[3]", "result": 192}]}, {"smiles": "CCN(CC)C(=O)c1ccc(N(c2cccc(OC)c2)C2CCN(CCc3ccoc3)CC2)cc1", "values": [{"measurement": "Emax", "setting": "[2]", "result": 115, "unit": "%"}]}, {"smiles": "CCN(CC)C(=O)c1ccc(N(c2cccc(O)c2)C2CCN(CCc3cccs3)CC2)cc1", "values": [{"measurement": "Ratio Ki", "setting": "[1]", "result": 696}, {"measurement": "Emax", "setting": "[2]", "result": 104, "unit": "%"}, {"measurement": "Ratio Ki", "setting": "[3]", "result": 278}]}, {"smiles": "CCN(CC)C(=O)c1ccc(N(c2cccc(O)c2)C2CCN(CCC3CCCCC3)CC2)cc1", "values": [{"measurement": "Ratio Ki", "setting": "[1]", "result": 315}, {"measurement": "Emax", "setting": "[2]", "result": 106, "unit": "%"}, {"measurement": "Ratio Ki", "setting": "[3]", "result": 125}]}]}
